Data from patent US20230295066A1, “Process for the Efficient Preparation of (Bio)-Alkanediols” (Symrise AG, priority 2020, published 2023).

Assay: Sensory properties of lipid/alkanediol blends assessed by untrained panellists
Assay type: in vivo
Settings: scale 1 to 5; for Spreading, w: after 30 s
[1] = CCT (neutral oil) blended with alkanediol 85:15
[2] = Cacao butter blended with alkanediol 85:15
[3] = Grapeseed Oil blended with alkanediol 85:15
[4] = Octocrylene (Neo Heliopan 303) blended with alkanediol 85:15
[5] = Octocrylene blended with alkanediol 85:15
[6] = Olive Oil blended with alkanediol 85:15
[7] = Argan Oil blended with alkanediol 85:15
[8] = Avocado Oil blended with alkanediol 85:15
[9] = Helianthus Annuus (Sunflower) Seed Oil blended with alkanediol 85:15

Row | Structure (SMILES) | Absorption, w [1] | Spreading, w [1] | Absorption, w [2] | Spreading, w [2] | Absorption, w [3] | Spreading, w [3] | Spreading, w [4] | Absorption, w [5] | Absorption, w [6] | Spreading, w [6] | Absorption, w [7] | Spreading, w [7] | Absorption, w [8] | Spreading, w [8] | Absorption, w [9] | Spreading, w [9]
1 | CCCCC(O)CO (stereo not drawn) [1,2-C6, 1,2-hexanediol] | 2.8 | 3.6 |  |  |  |  |  |  |  |  |  |  |  |  |  | 
2 | CCCCCC(O)CO (stereo not drawn) [1,2-C7, 1,2-heptanediol] | 2.7 | 3.4 | 3.6 | 3.8 | 2.8 | 3.8 | 3.5 | 3.5 | 2.4 | 4 |  |  |  |  |  | 
3 | CCCCCCC(O)CO (stereo not drawn) [1,2-C8, 1,2-octanediol] |  |  |  |  | 1.6 | 4 | 3.5 | 3.5 | 2.6 | 4.2 | 2.6 | 3.8 | 2.6 | 4 | 2 | 4.2
4 | CCCC(O)C(C)O (stereo not drawn) [2,3-C6, 2,3-hexanediol] | 2.8 | 3.2 |  |  |  |  |  |  |  |  |  |  |  |  |  | 
5 | CCCCC(O)C(C)O (stereo not drawn) [2,3-C7, 2,3-heptanediol] | 3 | 3.6 | 3.2 | 3 | 2.2 | 3.6 | 3.5 | 3.5 | 2 | 4 |  |  |  |  |  | 
6 | CCCCCC(O)C(C)O (stereo not drawn) [2,3-C8, 2,3-octanediol] |  |  |  |  | 2.4 | 2.8 | 3.5 | 2.5 | 2.6 | 3.2 | 2.2 | 3.4 | 2.4 | 3.2 | 3.4 | 3.4

Some results come without the dose or concentration used.
